This note sets out measurements from PMC9108200, “Antiviral Activity of Selected Lamiaceae Essential Oils and Their Monoterpenes Against SARS-Cov-2” (Frontiers in Pharmacology, 2022).

For the data set, the system named is SARS-CoV-2. The format is cell-based. To be noted: monoterpenes; ratio of IC50 against Vero cells to IC50 against SARS-Cov2.

Turning to `Cc1coc2c1CCC(C)C2` (centres unmarked) [Menthofuran], the “TI (therapeutic index)” value was determined as 3.28. For `Cc1ccc(C(C)C)cc1O` [Carvacrol] the value was 6.23.
